Results of unrelated studies side by side (data: NIAID ChemDB).

Shared fields: tests in culture; agent: HIV-1; endpoint: EC50

Two numbers with a dash give a range or band. An empty or dashed field is not shown. ECn is the concentration giving n% inhibition of infection, replication or growth. Rows are shuffled and stem from different studies.

SMILES,cells,strain or isolate,method,mutations,value
CCc1cc(C#N)cc(C(=O)c2cc(Cl)ccc2OCC(=O)Nc2ccc(S(N)(=O)=O)cc2C)c1,HeLa + HELA CD4+,HXB2,β-galactosidase,RT-V106I,<0.01 µM
Cc1ncc(-c2ccc(O[C@H](C)COc3ccccc3)nc2)c(N2CCC(C)(C)CC2)c1[C@H](OC(C)(C)C)C(=O)O,MT-2,NL4-3,luminescence,-,0.0024 µM
CC(C)C1=C2[C@H]3CC[C@@H]4[C@@]5(C)CC[C@H](OC(=O)[C@H]6C[C@@H](C(=O)O)C6(C)C)C(C)(C)[C@@H]5CC[C@@]4(C)[C@]3(C)CC[C@@]2(CC(=O)NCC(C)(C)NC(=O)c2ccc(OCCN3CCOCC3)cc2)CC1=O,MT-2,92HT599,p24 / ELISA,-,<1 µM
Cc1ncc(-c2ccc(NCCOc3ccc(C#N)cc3)cn2)c(N2CCC(C)(C)CC2)c1[C@H](OC(C)(C)C)C(=O)O,MT-2,NL4-3,luminescence,-,0.005 µM
Cc1cc(S(N)(=O)=O)ccc1NC(=O)COc1ccc(Cl)cc1C(=O)c1cccc(C#N)c1,HeLa + HELA CD4+,HXB2,β-galactosidase,RT-K103N,<0.01 µM
Cc1ccc(C(=O)NC[C@H](O)[C@@]23CC[C@]4(C)[C@H](CC[C@@H]5[C@@]6(C)CC[C@H](OC(=O)[C@H]7C[C@@H](C(=O)O)C7(C)C)C(C)(C)[C@@H]6CC[C@]54C)C2=C(C(C)C)C(=O)C3)cc1,MT-2,92HT599,p24 / ELISA,-,<1 µM
Cc1cc(S(N)(=O)=O)ccc1NC(=O)COc1ccc(Cl)cc1C(=O)c1cc(F)cc(C(F)(F)F)c1,HeLa + HELA CD4+,HXB2,β-galactosidase,RT-K103N P225H,<0.01 µM
Cc1ccc(OCCOc2ncc(-c3cnc(C)c([C@H](OC(C)(C)C)C(=O)O)c3N3CCC(C)(C)CC3)cc2F)cc1F,MT-2,NL4-3,luminescence,-,0.0015 µM
Cc1cc2[nH]cnc2cc1NC(=O)COc1ccc(Cl)cc1C(=O)c1cc(F)cc(C(F)(F)F)c1,HeLa + HELA CD4+,HXB2,β-galactosidase,RT-V106I Y181C,<0.01 µM
N#CC1=CC2Nc3ccccc3C2N(c2ccc([N+](=O)[O-])cc2)C1=O,HeLa,14AG,GFP / fluorescence,-,0.2 µM
CC(C)C1=C2[C@H]3CC[C@@H]4[C@@]5(C)CC[C@H](OC(=O)[C@H]6C[C@@H](C(=O)O)C6(C)C)C(C)(C)[C@@H]5CC[C@@]4(C)[C@]3(C)CC[C@@]2(CCNCC(C)(C)NC(=O)c2ccc(N3CCS(=O)(=O)CC3)cc2)CC1=O,MT-2,92HT599,p24 / ELISA,-,<1 µM
Cc1ccc(OCCOc2ncc(-c3cnc(C)c([C@H](OC(C)(C)C)C(=O)O)c3N3CCC(C)(C)CC3)cc2F)c(Cl)c1,MT-2,NL4-3,luminescence,-,0.0026 µM
CC(C)C1=C2[C@H]3CC[C@@H]4[C@@]5(C)CC[C@H](OC(=O)[C@H]6C[C@@H](C(=O)O)C6(C)C)C(C)(C)[C@@H]5CC[C@@]4(C)[C@]3(C)CC[C@@]2(CCNCC(C)(C)NC(=O)c2ccc(N3CCC(O)CC3)cc2)CC1=O,MT-2,92HT599,p24 / ELISA,-,<1 µM
Cc1cc(C)cc(C(=O)c2cc(Cl)ccc2OCC(=O)Nc2ccc(S(N)(=O)=O)cc2C)c1,MT-4,Nevirapine-resistant (RT Y181C),cytopathic effect / propidium iodide,RT-Y181C,<0.01 µM
Cc1ncc(-c2ccc(OCC3CCCCC3)cn2)c(N2CCC(C)(C)CC2)c1[C@H](OC(C)(C)C)C(=O)O,MT-2,NL4-3,luminescence,-,0.0016 µM
CC(C)C1=C2[C@H]3CC[C@@H]4[C@@]5(C)CC[C@H](OC(=O)[C@H]6C[C@@H](C(=O)O)C6(C)C)C(C)(C)[C@@H]5CC[C@@]4(C)[C@]3(C)CC[C@@]2(CCNCC(C)(C)NC(=O)c2cccnc2)CC1=O,MT-2,92HT599,p24 / ELISA,-,<1 µM
CN1c2ccccc2C2C1C=C(C#N)C(=O)N2c1ccc([N+](=O)[O-])cc1,HeLa,6463-13,GFP / fluorescence,-,0.35 µM
CC(C)C1=C2[C@H]3CC[C@@H]4[C@@]5(C)CC[C@H](OC(=O)[C@H]6C[C@@H](C(=O)O)C6(C)C)C(C)(C)[C@@H]5CC[C@@]4(C)[C@]3(C)CC[C@@]2([C@@H](O)CNCc2ccc(Cl)c(Cl)c2)CC1=O,MT-2,92HT599,p24 / ELISA,-,<1 µM
Cc1cc(S(N)(=O)=O)ccc1NC(=O)COc1ccc(Cl)cc1C(=O)c1cc(F)cc(C#N)c1,HeLa + HELA CD4+,HXB2,β-galactosidase,RT-V108I,<0.01 µM
Cc1ncc(-c2ccc(OCCOc3ccc(F)cc3)nc2)c(N2CCC(C)(C)CC2)c1[C@H](OC(C)(C)C)C(=O)O,MT-2,NL4-3,luminescence,-,0.0017 µM
Cc1cc2cn[nH]c2cc1NC(=O)COc1ccc(Cl)cc1C(=O)c1cccc(C#N)c1,HeLa + HELA CD4+,HXB2,β-galactosidase,RT-V106A,0.101–1 µM
Cc1ncc(-c2ccc(OCCOC3CCCCC3)cn2)c(N2CCC(C)(C)CC2)c1[C@H](OC(C)(C)C)C(=O)O,MT-2,NL4-3,luminescence,-,0.001 µM

A second listing of 2 rows from above:

{"SMILES": "Cc1cc(S(N)(=O)=O)ccc1NC(=O)COc1ccc(Cl)cc1C(=O)c1cc(F)cc(C#N)c1", "cells": "HeLa + HELA CD4+", "strain or isolate": "HXB2", "method": "β-galactosidase", "mutations": "RT-V108I", "value": "<0.01 µM"}
{"SMILES": "Cc1ccc(OCCOc2ncc(-c3cnc(C)c([C@H](OC(C)(C)C)C(=O)O)c3N3CCC(C)(C)CC3)cc2F)c(Cl)c1", "cells": "MT-2", "strain or isolate": "NL4-3", "method": "luminescence", "value": "0.0026 µM"}